According to publication PMC2781006 (Virology Journal, 2009):

Tests used:
[1] = system: Nipah virus; format: cell-based; conditions: ratio CC50 / IC50
[2] = system: Hendra virus; format: cell-based; conditions: ratio CC50 / IC50

| Compound | NiV TI (CellTiter-Glo) [1] | HeV TI (CellTiter-Glo) [2] | NiV TI (alamarBlue) [1] | HeV TI (alamarBlue) [2] |
| --- | --- | --- | --- | --- |
| NC(=O)c1ncn([C@@H]2O[C@H](CO)[C@@H](O)[C@H]2O)n1 [Ribavirin, ribavirin] | 38.42 | 66.82 | – | – |
| CN1C(=O)[C@]23CC4=CC=C[C@H](O)[C@H]4N2C(=O)[C@@]1(CO)SS3 [Gliotoxin, gliotoxin] | 32.81 | 8.44 | 10.80 | 2.78 |
| CN(C)c1ccc(C(=C2C=CC(=[N+](C)C)C=C2)c2ccc(N(C)C)cc2)cc1 [Gentian Violet, gentian violet] | 11.16 | 2.19 | 5.39 | 1.06 |
| brilliant green | 21.39 | 6.00 | 3.95 | 1.11 |
